# Percent effect of library compounds

Data taken from ChEMBL document CHEMBL3988442, “University of Dundee, Small-Polar-MMV Screening Library” (2021).

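Growth of Mycobacterium tuberculosis over 4 days (cholesterol / DPPC medium with tyloxapol); the read-out is not stated. Compounds at 50 µM. Direction is inferred from retests: higher values go with more growth inhibition. Of about 69,000 compounds tested this way, about 370 (0.54%) reached 50% or more in at least one test.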

The filed quantity is “Percent Effect” (%).
The record does not define 0% and 100%; most values in the screen are far below 50% and negative numbers occur (in some assays of this library far below -100).
Many other results are left out here, so strong results are more common than in the screen.
Two or more numbers in one place are separate tests of the same structure; such repeats can differ widely.

| # | compound | percent effect |
|---|---|---|
| 1 | `CNc1cc(C)nc(N2Cc3cnn(Cc4ccc(F)cc4)c3C2)n1` | 77.9 & 79.23 |
| 2 | `CN(CC1COc2ccccc2O1)C(=O)CCn1cncn1` (centres unmarked) | -7.483 |
| 3 | `CC(Cn1ccnc1)NC(=O)Cc1ccc2c(c1)OCCO2` (centres unmarked) | -15.8 |
| 4 | `COc1cccc(COCC(O)CN(C)c2ccc(C)cc2C)c1` (centres unmarked) | 20.39 |
| 5 | `CCCOc1cc(CNC(=O)Nc2ccccn2)ccn1` | -15.66 |
| 6 | `COc1c(C)cnc(CSc2nnc(N3CCCC3)s2)c1C` | -11.99 & -8.867 |
| 7 | `O=C(c1ccc(Br)o1)N1CCN(Cc2ccc(F)cc2)CC1` | 37.92 |
| 8 | `CC(=O)Nc1nc(COc2nc(C)no2)cs1` | -13.13 |
| 9 | `CCNC(=O)CNS(=O)(=O)c1cc(Br)ccc1F` | -5.138 |
| 10 | `O=C(CNc1ccc(F)cc1OCC(F)(F)F)NCc1ccco1` | 15.16 & 13.49 |
| 11 | `COc1ccc(CCn2cnnc2[S+](C)[O-])cc1` (centres unmarked) | -9.082 |
| 12 | `O=C(c1ccn(COc2ccc(F)cc2)n1)N1CCCC1` | 34.62 |
| 13 | `O=C(O)C(F)(F)F.[H][C@@]12CN(CC)C[C@]1([H])[C@H](OC)CCN2C(=O)Cc1ccsc1` | 17.02 |
| 14 | `CCCN1CCCC2(CCN(Cc3noc(C4CCCC4)n3)C2)C1=O` (centres unmarked) | -26.65 & 8.146 |
| 15 | `Cc1ccc(CSc2nc(N)cc(NCCC(=O)N3CCCC3)n2)cc1` | 7.066 |
| 16 | `CC(C)c1nc(C(=O)N(C)c2ccc(Br)cn2)cs1` | 22.09 |
| 17 | `c1ccc(Cc2n[nH]c(C3CCOC3)n2)cc1` (centres unmarked) | 2.363 |
| 18 | `COc1cccc(CCC(=O)N2CCN(CC(C)(C)O)CC2)c1` | -16.21 |
| 19 | `O=C(Cc1ccc2c(c1)OCCO2)N1CCCC(n2cccn2)C1` (centres unmarked) | 16.43 |
| 20 | `CCOCCC(=O)N1CCCN(c2ccccc2C)CC1` | 17.47 |
| 21 | `CCOCCN1CCn2c(C)nnc2C1` | 106.4 |
| 22 | `CC(Cn1cccn1)NCc1nc(-c2ccccn2)no1` (centres unmarked) | -22.43 |
| 23 | `Fc1ccc(N2CCCN(c3ccc(Cn4ccnc4)cn3)CC2)cc1` | 63.92 |
| 24 | `[H][C@]12CC[C@]([H])(CN(Cc3cc(-c4ccccc4)no3)C1)N(CC1CCC1)C2` | 78.17 & 72.26 |
| 25 | `CCS(=O)(=O)N1CCC(c2nnc(CN3CCOCC3)n2C)CC1` | 2.389 |
| 26 | `O=C1CCCN1Cc1nnc(SCc2ccc3c(c2)CCC3)o1` | 26.86 & 41.45 |
| 27 | `COCCC(=O)N1CCC(C(=O)c2cc(C)cnc2N)CC1` | 51.53 |
| 28 | `[H][C@@]12CC[C@H](Oc3ccccc3Cl)[C@]1([H])CN(C(=O)CN(C)C)C2` | 9.936 |
| 29 | `CN(C)C(=O)c1csc(-c2ccoc2)n1` | -8.097 |
| 30 | `O=C(O)C(F)(F)F.O=C(O)C(F)(F)F.[H][C@]12C[C@@H](CN3CCCC3)N(C)[C@@]1([H])CCN(C(=O)c1cccn1C)C2` | 117.3 |
| 31 | `Cc1nc(COC(=O)c2cccnc2C)no1` | -16.3 |
| 32 | `COc1ccc(C(=O)Nc2cccc(SC)c2)c(OC)n1` | -34.16 |
| 33 | `COc1cc(C)c(-c2ccc(F)c3c2OC(CN)C3)cc1C` (centres unmarked) | 51.09 & 46.89 |
| 34 | `CN(C)c1cc2c(nn1)CCN(C(=O)c1cc3ccccc3[nH]c1=O)C2` | 77.94 |
| 35 | `Cl.Nc1ccc(-c2cnc(C3CCCN3)cn2)cn1` (centres unmarked) | -0.1868 & 14.12 |
| 36 | `Cc1noc(NC(=O)c2ccc(OC(F)(F)F)cc2)n1` | 68.31 |
| 37 | `O=S(=O)(CCc1ccccc1)Cc1nc(C2CC2)no1` | 47.63 & 60.13 |
| 38 | `COC(=O)c1ccc(CN(C)C(=O)c2cnsn2)cc1` | 30.72 |
| 39 | `Cc1cc(N2CCC(CO)(CC3CCCCO3)CC2)nc2ccccc12` (centres unmarked) | 11.87 |
| 40 | `CCCc1nnc(N2CC[C@](C)(O)[C@H](C)C2)s1` | -11.13 |
| 41 | `CCOc1ccc(N2CCCN=C2NC(=O)c2ccc(Cl)cc2)cc1` | -10.21 |
| 42 | `Cc1ccc(S(=O)(=O)NCCc2ccoc2)s1` | 71.89 |
| 43 | `CCN(C(=O)CCOC)C(c1ccc(Cl)cc1)c1ccccn1` (centres unmarked) | -5.115 |
| 44 | `CC(C)[C@@H]1CN(C(=O)NCc2ccco2)C[C@H]1N(C)C` | 72.06 |
| 45 | `CN(C)C(=O)c1cccc(CNc2ccc(C#N)cn2)c1` | -16.43 |
| 46 | `CC(C)Oc1cccc(C(=O)C2CCCN(C(=O)c3ccnn3C)C2)c1` (centres unmarked) | -0.5837 |
| 47 | `CN(CCS(=O)(=O)c1cc(Cl)ccc1Cl)CC(N)=O` | 18.11 |
| 48 | `Cn1nc(C2CCCN(Cc3ccc(F)cc3F)C2)c2nccnc21` (centres unmarked) | -5.645 |
| 49 | `COc1cc(CNc2nc(C3CC3)no2)cc(OC)c1OC` | 4.124 & -6.754 |
| 50 | `O=C(O)C(F)(F)F.c1cncc(-c2ccc3c(c2)C2(CC3)CCN(c3nncs3)CC2)c1` | -14.45 |
| 51 | `OCC1CCN(Cc2cc3c(cc2Br)OCCO3)CC1` | 18.83 |
| 52 | `NC(=O)C1CCN(C(=O)CCn2ccc3ccc(Br)cc32)CC1` | 7.931 |
| 53 | `Cc1nnc(N2CC[C@H](OCC3CC3)[C@@H](Cc3ccccc3)C2)s1.O=C(O)C(F)(F)F` | 10.19 |
| 54 | `CCc1ncc(CN2CCOC(Cc3cccc(F)c3)C2)cn1` (centres unmarked) | 44.17 |
| 55 | `Cc1nc(CN2CCCC(CCc3ccccc3C(F)(F)F)C2)co1` (centres unmarked) | 9.512 |
| 56 | `CCN(C(=O)CCCOC)C(c1ccc(Cl)cc1)c1ccccn1` (centres unmarked) | 73.81 |
| 57 | `CCc1ccccc1CNC(=O)NCc1cnn(C)c1` | -28.61 |
| 58 | `[H][C@]12CC[C@]([H])(CN(Cc3ccc(-n4cccn4)cc3)C1)N(CCC)C2` | 67.49 |
| 59 | `CCOC(=O)C1CCN(C(=O)Cn2ccc3cc(Br)ccc32)CC1` | -13.18 |
| 60 | `Cc1ncccc1CNCC1COC2(CCCCC2)O1` (centres unmarked) | 3.21 |
| 61 | `Cc1oc(C)c(C(=O)NCc2ccccn2)c1C` | -6.792 |
| 62 | `Cc1ccc(CNC(=O)CCN2CCN(c3ccccn3)CC2)n1C` | -32.33 |
| 63 | `Cc1nnc(-c2ccc(C(=O)Nc3ccnc(N(C)C)n3)cc2)o1` | -18.64 |

For reference, 6 entries once more:

compound,percent effect
Cc1ccc(CNC(=O)CCN2CCN(c3ccccn3)CC2)n1C,-32.33
Cc1nc(COC(=O)c2cccnc2C)no1,-16.3
COc1cccc(COCC(O)CN(C)c2ccc(C)cc2C)c1 (centres unmarked),20.39
CCOc1ccc(N2CCCN=C2NC(=O)c2ccc(Cl)cc2)cc1,-10.21
OCC1CCN(Cc2cc3c(cc2Br)OCCO3)CC1,18.83
CCCc1nnc(N2CC[C@](C)(O)[C@H](C)C2)s1,-11.13